Results of unrelated studies side by side (data: NIAID ChemDB).

Shared fields: whole-cell or culture tests; agent: HIV-2; endpoint: EC50

ECn: concentration that inhibits the pathogen or its effect by n%.

smiles,strain or isolate,conditions,method,cells,value
CCc1c(C(=O)c2cccc3ccccc23)n(COC)c(=O)[nH]c1=O,ROD,,cytopathic effect / MTT,MT-4,>34.35 µM
O=c1[nH]cnc2c1ncn2[C@H]1CC[C@@H](CO)O1,2298,,ELISA,PBMC,6.14 µM
CC(C)c1c(C(=O)c2cccc3ccccc23)n(C/C=C/c2ccccc2)c(=O)[nH]c1=O,ROD,,cytopathic effect / MTT,MT-4,>21.23 µM
Nc1ccn([C@H]2CC[C@@H](CO)O2)c(=O)n1,ROD,,syncytia,CEM,0.01 µM
CCc1c(C(=O)c2cccc3ccccc23)n(CC(=O)c2ccc(OC)cc2)c(=O)[nH]c1=O,ROD,,cytopathic effect / MTT,MT-4,>28.75 µM
O=c1[nH]c2c(c(=O)[nH]1)C(c1ccccc1)c1c([nH]c(=O)[nH]c1=O)O2,EHO,,cytopathic effect,MT-4,169.3 µM
Cc1cn([C@H]2CC[C@@H](O)[C@H]2CO)c(=O)[nH]c1=O,,,,CEM + CEM/0,>250 µM
CCCCN(CCCC)P(=O)(OCCSC(=O)C(C)(C)C)OC[C@H]1O[C@@H](n2cc(C)c(=O)[nH]c2=O)C[C@@H]1N=[N+]=[N-],ROD,,,CEM + CEM TK-,>10 µM
CC(C)NC(=O)c1cnnn1C1OC(CO[Si](C)(C)C(C)(C)C)C2(OS(=O)(=O)C=C2N)C1O[Si](C)(C)C(C)(C)C,ROD,,cytopathic effect,MT-4,>250 µM
Cn1ncc2c1S(=O)(=O)N(CCc1ccc(Cl)cc1)C(=O)N2CCc1ccc(Cl)cc1,ROD,,MTT,MT-4,>5.8 µM
CCOC(=O)Cn1c(C(=O)c2cccc3ccccc23)c(C(C)C)c(=O)[nH]c1=O,ROD,,cytopathic effect / MTT,MT-4,>37.01 µM
Cc1ccnc2c1NC(=O)c1cccnc1N2C1CC1,EHO,,cytopathic effect,MT-4,>97.6 µM
Cc1cn([C@H]2C[C@H](CO)[C@@H](O)C2)c(=O)[nH]c1=O,,,,CEM + CEM/0,2.67 µM
Nc1ncnc2c1ncn2[C@@H]1C[C@H](O)[C@@H](O)[C@H]1O,ROD,,syncytia,CEM,>0.16 µg/mL
CC(C)(C)[Si](C)(C)OCC1OC(n2nncc2C(=O)NC2CCCC2)C(O[Si](C)(C)C(C)(C)C)C12OS(=O)(=O)C=C2N,ROD,,cytopathic effect,CEM,>50 µM
Cc1cc(Br)cc(C)c1Oc1ncc(NC(=O)C(F)(F)F)c(Nc2ccc(C#N)cc2)n1,ROD,,MTT,MT-4,36 µM
C#CCn1c(C(=O)c2cccc3ccccc23)c(C(C)C)c(=O)[nH]c1=O,ROD,,cytopathic effect / MTT,MT-4,>4.1 µM
C1CNCCNCCCNCCNC1.[Cl-].[O]=[V+2],ROD,,MTT,MT-4,>360 µM
Cc1cn([C@H]2C=C[C@@H](CO[P@]3(=O)OCc4cccc(-c5cccc6c5OC(C)(C)OC6)c4O3)O2)c(=O)[nH]c1=O,LAV-2,,syncytia,CEM,0.4 µM
N=c1ncn([C@H]2CC[C@@H](CO)O2)c2nc[nH]c12,,,,MT-4,321 µM
CCNC(=O)c1cnnn1C1OC(CO[Si](C)(C)C(C)(C)C)C2(OS(=O)(=O)C=C2N)C1O[Si](C)(C)C(C)(C)C,ROD,,cytopathic effect,MT-4,>250 µM
CCc1c(C(=O)c2cccc3ccccc23)n(C/C=C/C(=O)OC)c(=O)[nH]c1=O,ROD,,cytopathic effect / MTT,MT-4,>34.44 µM
CC(=O)Oc1ccc(/C=C/C(=O)O[C@@H](C(=O)O)[C@@H](OC(=O)/C=C/c2ccc(OC(C)=O)c(OC(C)=O)c2)C(=O)O)cc1OC(C)=O,ROD,,cytopathic effect / MTT,MT-4,25.5 µM
Cc1cccc2c1OP(=O)(OC[C@H]1[C@H](n3cc(C)c(=O)[nH]c3=O)CC[C@@H]1O)OC2,,,,CEM + CEM/0,125 µM
COCn1c(C(=O)c2cccc3ccccc23)c(C(C)C)c(=O)[nH]c1=O,ROD,,cytopathic effect / MTT,MT-4,>42.98 µM
COc1c(O)c(I)c2c(c1OC)-c1c(c(I)c(O)c(OC)c1OC)C[C@H](C)[C@H](C)C2,ROD,,cytopathic effect / MTT,MT-4,>16 µM
Cc1cn([C@H]2C=C[C@@H](CO)O2)c(=O)[nH]c1=O,ROD,5 d,trypan blue,MT-4,0.77 µM
Cc1cc(C#N)cc(C)c1Oc1ncc(NC(=O)C(F)(F)F)c(Nc2ccc(C#N)cc2)n1,ROD,,MTT,MT-4,>276 µM
COC(=O)[C@H](C)NP(=O)(OC[C@@H]1C=C[C@H](n2cc(C)c(=O)[nH]c2=O)O1)Oc1ccccc1,ROD,,syncytia,CEM,0.1 µM
CC(C)=CCN1Cc2cccc3[nH]c(=S)n(c23)C[C@@H]1C,CBL-20,,cytopathic effect / MTT,MT-4,>105 µM
COc1nc(=O)[nH]c2c1C(c1ccc([N+](=O)[O-])cc1)c1c(OC)nc(=O)[nH]c1O2,ROD,,cytopathic effect,MT-4,>313 µM
Cc1cc(C#N)cc(C)c1Oc1ncc([N+](=O)[O-])c(Nc2ccc(C#N)cc2)n1,ROD,,MTT,MT-4,>274 µM
CC(C)(C)[Si](C)(C)OCC1OC(n2nncc2C(=O)N2CCC2)C(O[Si](C)(C)C(C)(C)C)C12OS(=O)(=O)C=C2N,ROD,,cytopathic effect,CEM,>50 µM
Cn1ncc2c1S(=O)(=O)N(CCc1ccccc1)C(=O)N2CCc1ccc(C#N)cc1,ROD,,MTT,MT-4,>23.8 µM
Cc1cc(C=O)cc(C)c1Oc1ncc(NC(=O)C(F)(F)F)c(Nc2ccc(C#N)cc2)n1,ROD,,MTT,MT-4,>216 µM
O=c1[nH]c2c(c(=O)[nH]1)C(c1ccc(I)cc1)c1c([nH]c(=O)[nH]c1=O)O2,ROD,,cytopathic effect,MT-4,>276 µM
COc1c(O)c(Br)c2c(c1OC)-c1c(c(Br)c(O)c(OC)c1OC)C[C@H](C)[C@H](C)C2,ROD,,cytopathic effect / MTT,MT-4,>18 µM
C1CNCCNCCCN[C@H]([C@H]2CNCCCNCCNCCCN2)CNC1,ROD,,cytopathic effect / MTT,MT-4,0.32 µg/mL
Cc1cn([C@H]2C=C[C@@H](CO[P@@]3(=O)OCc4cccc(-c5cccc6c5OC(C)(C)OC6)c4O3)O2)c(=O)[nH]c1=O,LAV-2,,syncytia,CEM,0.4 µM
COC(=O)[C@H](C)NP(=O)(OC[C@@H]1O[C@H](n2ccc(N)nc2=O)CS1)Oc1ccccc1,ROD,,syncytia,CEM + CEM TK-,5.5 µM
CCCOC(=O)C(C)NP(=O)(OC[C@@H]1C=C[C@H](n2cc(C)c(=O)[nH]c2=O)O1)Oc1ccccc1,ROD,,cytopathic effect / trypan blue,CEM + CEM TK-,0.08 µM
COC(=O)[C@H](C)NP(=O)(OC[C@@H]1C=C[C@H](n2cc(C)c(=O)[nH]c2=O)O1)Oc1ccccc1,ROD,4 d,syncytia,CEM,0.2 µM
Cn1ncc2c1S(=O)(=O)N(CCc1ccccc1)C(=O)N2CCc1ccccc1,ROD,,MTT,MT-4,>327.2 µM
C[C@H](Cn1cnc2c(N)ncnc21)OCP(=O)(O)O,ROD,,cytopathic effect,MT-4,3.48 µM
C1CNCCNCCCNCCNC1,ROD,,cytopathic effect / MTT,MT-4,54 µg/mL
Cn1ncc2c1S(=O)(=O)N(CCc1ccc(Cl)cc1Cl)C(=O)N2CCc1ccc(Cl)cc1Cl,ROD,,MTT,MT-4,38.1 µM

Blank or dashed fields: not listed here. Conditions beyond the fields shown may differ between rows.